According to PMC12428505 (International Journal of Molecular Sciences, 2025):

Assay: general procedure: Fmoc solid-phase peptide synthesis; Rink amide resin, loading 0.53 mmol/g; HBTU (3 equiv) / DIEA (6 equiv) in DMF
Conditions: 210 nm

For “PEPTIDE1{[ac].D.K.E.W.I.L.Q.K.I.Y.E.L.M.R.I.L.D.E.L.G.H.A.E.A.S.M.R.V.E.D.L.I.Y.E.F.M.K.[am]}$$$$V2.0”, the “final HPLC purity” value (whole synthesis, run 1) was 99% and 97%.

For “CmX-PEG4--DKEWILQKIYELMRILDELGHAEASMRVEDLIYEFMK-CONH2”, the “final HPLC purity” value (conjugation step) was 98%.

“And” between values parts separate entries of the source, which are not always exact repeats. Equal entries are not always repeated. Strings that start with PEPTIDE1 are HELM notation: dots part the residues, brackets hold end groups and non-standard residues.
